Data as given in article PMC1182329 (Nucleic Acids Research, 2005).

Assays:
CEM cells = assay: Uptake kinetics with 125I-labeled conjugates; assay type: cell-based; conditions: slope of Hill plot of uptake data, 125I-labeled conjugate, room temperature, 30 s
How it was run: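 125I-labeled conjugate purified by gel filtration and C18 reverse phase, quantified at A260, and specific radioactivity set with unlabeled conjugate. 1 × 10^6 CEM cells exposed to varying concentrations at room temperature for 30 s, then filtered on glass fiber, washed with PBS. Internalized conjugate measured by gamma counting from specific radioactivity; nH taken from Hill plot slope.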

[1] = test system: VSV-G pseudotyped HIV-1 in CEM cells; conditions: 48 h
[2] = test system: VSV-G pseudotyped HIV-1 virions; conditions: 1 h

SMILES	Hill coefficient (nH) of uptake (CEM cells)	IC50 [1] [nM]	IC50 [2] [nM]
CC[C@H](C)[C@H](NC(=O)[C@H](CCCCNC(=O)[C@@H](N)CSSC[C@H](NC(C)=O)C(=O)NCCN(CC(=O)NCCN(CC(=O)NCCN(CC(=O)NCCN(CC(=O)NCCN(CC(=O)NCCN(CC(=O)NCCN(CC(=O)NCCN(CC(=O)NCCN(CC(=O)NCCN(CC(=O)NCCN(CC(=O)NCCN(CC(=O)NCCN(CC(=O)NCCN(CC(=O)NCCN(CC(=O)NCCN(CC(N)=O)C(=O)Cn1cc(C)c(=O)[nH]c1=O)C(=O)Cn1ccc(N)nc1=O)C(=O)Cn1cc(C)c(=O)[nH]c1=O)C(=O)Cn1cnc2c(N)ncnc21)C(=O)Cn1cnc2c(=O)[nH]c(N)nc21)C(=O)Cn1cnc2c(N)ncnc21)C(=O)Cn1ccc(N)nc1=O)C(=O)Cn1cc(C)c(=O)[nH]c1=O)C(=O)Cn1ccc(N)nc1=O)C(=O)Cn1cnc2c(=O)[nH]c(N)nc21)C(=O)Cn1cnc2c(=O)[nH]c(N)nc21)C(=O)Cn1cnc2c(N)ncnc21)C(=O)Cn1ccc(N)nc1=O)C(=O)Cn1ccc(N)nc1=O)C(=O)Cn1ccc(N)nc1=O)C(=O)Cn1cc(C)c(=O)[nH]c1=O)NC(=O)CNC(=O)[C@H](CC(C)C)NC(=O)[C@H](CC(C)C)NC(=O)[C@H](Cc1ccc(O)cc1)NC(=O)CNC(=O)[C@H](C)NC(=O)[C@H](CO)NC(=O)[C@H](CC(N)=O)NC(=O)[C@H](CC(C)C)NC(=O)[C@H](Cc1ccc(O)cc1)NC(=O)[C@H](Cc1c[nH]c2ccccc12)NC(=O)CN)C(=O)N[C@@H](CC(N)=O)C(=O)N[C@@H](CC(C)C)C(=O)N[C@@H](CCCCN)C(=O)N[C@@H](C)C(=O)N[C@@H](CC(C)C)C(=O)N[C@@H](C)C(=O)N[C@@H](C)C(=O)N[C@@H](CC(C)C)C(N)=O [PNATAR–transportan-22]	1.8		
CC[C@H](C)[C@H](NC(=O)[C@H](CCCCN)NC(=O)[C@H](CCCCN)NC(=O)[C@H](C)NC(=O)[C@H](CC(C)C)NC(=O)[C@H](C)NC(=O)[C@H](C)NC(=O)[C@H](CC(C)C)NC(=O)[C@H](C)NC(=O)[C@H](CCCCN)NC(=O)[C@H](CC(C)C)NC(=O)[C@H](CC(N)=O)NC(=O)[C@@H](NC(=O)[C@H](CCCCNC(=O)[C@@H](N)CSSC[C@H](NC(C)=O)C(=O)NCCN(CC(=O)NCCN(CC(=O)NCCN(CC(=O)NCCN(CC(=O)NCCN(CC(=O)NCCN(CC(=O)NCCN(CC(=O)NCCN(CC(=O)NCCN(CC(=O)NCCN(CC(=O)NCCN(CC(=O)NCCN(CC(=O)NCCN(CC(=O)NCCN(CC(=O)NCCN(CC(=O)NCCN(CC(N)=O)C(=O)Cn1cc(C)c(=O)[nH]c1=O)C(=O)Cn1ccc(N)nc1=O)C(=O)Cn1cc(C)c(=O)[nH]c1=O)C(=O)Cn1cnc2c(N)ncnc21)C(=O)Cn1cnc2c(=O)[nH]c(N)nc21)C(=O)Cn1cnc2c(N)ncnc21)C(=O)Cn1ccc(N)nc1=O)C(=O)Cn1cc(C)c(=O)[nH]c1=O)C(=O)Cn1ccc(N)nc1=O)C(=O)Cn1cnc2c(=O)[nH]c(N)nc21)C(=O)Cn1cnc2c(=O)[nH]c(N)nc21)C(=O)Cn1cnc2c(N)ncnc21)C(=O)Cn1ccc(N)nc1=O)C(=O)Cn1ccc(N)nc1=O)C(=O)Cn1ccc(N)nc1=O)C(=O)Cn1cc(C)c(=O)[nH]c1=O)NC(=O)CNC(=O)[C@H](CC(C)C)NC(=O)[C@H](CC(C)C)NC(=O)[C@H](Cc1ccc(O)cc1)NC(=O)CNC(=O)[C@H](C)NC(=O)[C@H](CO)NC(=O)[C@H](CC(N)=O)NC(=O)[C@H](CC(C)C)NC(=O)[C@H](Cc1ccc(O)cc1)NC(=O)[C@H](Cc1c[nH]c2ccccc12)NC(=O)CN)[C@@H](C)CC)C(=O)N[C@@H](CC(C)C)C(N)=O [PNATAR–transportan-27]		400	66
